Assays:
[1] = target: Nicotinic acetylcholine receptor alpha1/beta1/epsilon/delta (Mus musculus) (UniProt P04756+P09690+P02716+P20782); assay: Antagonist activity at mouse alpha1beta1deltaepsilon nACh receptor expressed in Xenopus oocyte assessed as inhibition of acetylcholine-induced response at -70 mV holding potential by measuring ratio of IC50 by voltage-clamp based electrophysiological assay relative to GeXIVA; settings: filed as antagonist
[2] = Selectivity ratio of IC50 for mouse alpha1beta1deltaepsilon nACh receptor to IC50 for rat alpha9alpha10 nACh receptor

Sequences of proteins named here, by UniProt entry; tags and fusion partners are left off. Residues count along the entry.
UniProt P04756, 21-457 limits assumed: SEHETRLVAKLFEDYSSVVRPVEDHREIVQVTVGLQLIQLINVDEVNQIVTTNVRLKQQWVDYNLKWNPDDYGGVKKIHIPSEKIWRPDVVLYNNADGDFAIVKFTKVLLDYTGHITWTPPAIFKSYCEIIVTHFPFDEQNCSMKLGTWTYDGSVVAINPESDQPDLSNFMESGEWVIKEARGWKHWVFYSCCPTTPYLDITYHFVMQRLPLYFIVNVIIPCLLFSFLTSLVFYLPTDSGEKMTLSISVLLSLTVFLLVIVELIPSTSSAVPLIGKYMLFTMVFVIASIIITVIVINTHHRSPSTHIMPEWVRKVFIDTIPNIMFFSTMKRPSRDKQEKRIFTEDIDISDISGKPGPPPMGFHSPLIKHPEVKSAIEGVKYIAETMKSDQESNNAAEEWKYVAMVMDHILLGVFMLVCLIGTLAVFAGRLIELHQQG
UniProt P09690, 24-501 partner limits assumed: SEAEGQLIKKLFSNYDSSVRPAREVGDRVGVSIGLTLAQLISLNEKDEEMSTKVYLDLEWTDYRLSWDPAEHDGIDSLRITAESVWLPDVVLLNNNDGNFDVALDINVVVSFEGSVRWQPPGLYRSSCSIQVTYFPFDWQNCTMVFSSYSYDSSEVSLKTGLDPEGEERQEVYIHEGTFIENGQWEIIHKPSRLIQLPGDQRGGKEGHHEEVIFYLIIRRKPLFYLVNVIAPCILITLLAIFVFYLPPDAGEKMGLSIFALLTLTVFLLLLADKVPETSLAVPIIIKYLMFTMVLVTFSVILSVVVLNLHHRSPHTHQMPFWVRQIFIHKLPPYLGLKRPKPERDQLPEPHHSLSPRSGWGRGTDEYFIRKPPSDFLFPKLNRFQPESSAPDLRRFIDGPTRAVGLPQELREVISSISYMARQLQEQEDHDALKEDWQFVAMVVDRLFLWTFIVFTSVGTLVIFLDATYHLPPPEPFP
UniProt P02716, 25-520 partner limits assumed: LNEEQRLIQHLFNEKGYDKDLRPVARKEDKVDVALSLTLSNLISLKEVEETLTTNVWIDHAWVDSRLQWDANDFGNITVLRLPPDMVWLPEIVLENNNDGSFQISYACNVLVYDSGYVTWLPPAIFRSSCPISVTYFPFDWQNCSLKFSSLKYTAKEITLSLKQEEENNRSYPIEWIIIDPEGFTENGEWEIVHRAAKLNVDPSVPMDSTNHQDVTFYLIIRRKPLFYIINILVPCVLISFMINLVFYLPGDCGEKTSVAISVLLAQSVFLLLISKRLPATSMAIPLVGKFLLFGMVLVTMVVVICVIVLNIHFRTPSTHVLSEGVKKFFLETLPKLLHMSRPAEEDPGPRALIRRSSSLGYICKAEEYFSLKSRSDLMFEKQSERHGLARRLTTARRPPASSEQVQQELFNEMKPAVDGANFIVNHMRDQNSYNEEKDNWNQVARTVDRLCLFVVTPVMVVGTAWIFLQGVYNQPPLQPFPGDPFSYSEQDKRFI
UniProt P20782, 21-493 partner limits assumed: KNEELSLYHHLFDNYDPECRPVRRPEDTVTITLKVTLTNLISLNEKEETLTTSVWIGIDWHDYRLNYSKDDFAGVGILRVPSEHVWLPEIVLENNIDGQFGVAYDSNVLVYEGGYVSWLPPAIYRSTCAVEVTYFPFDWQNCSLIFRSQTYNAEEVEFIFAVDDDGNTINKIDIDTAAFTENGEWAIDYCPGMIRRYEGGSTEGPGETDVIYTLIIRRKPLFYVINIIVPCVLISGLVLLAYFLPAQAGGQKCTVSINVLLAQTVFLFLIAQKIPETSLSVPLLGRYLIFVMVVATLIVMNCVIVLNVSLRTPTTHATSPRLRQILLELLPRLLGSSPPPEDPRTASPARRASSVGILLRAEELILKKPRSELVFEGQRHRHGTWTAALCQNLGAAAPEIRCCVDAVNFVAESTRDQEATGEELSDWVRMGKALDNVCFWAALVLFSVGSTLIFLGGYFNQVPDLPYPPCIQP

For `CC[C@H](C)[C@@H]1NC(=O)[C@H](CCCNC(=N)N)NC(=O)[C@H](CCCNC(=N)N)NC(=O)[C@@H]2CSSC[C@H](NC(=O)[C@H](Cc3ccc(O)cc3)NC(=O)[C@H](CCCNC(=N)N)NC(=O)CNC(=O)[C@H](CO)NC(=O)[C@H](CO)NC(=O)[C@H](CCCNC(=N)N)NC(=O)[C@@H](NC(=O)[C@@H](N)[C@@H](C)O)CSSC[C@@H](C(=O)N[C@H](C(=O)O)C(C)C)NC(=O)[C@H](C)NC(=O)[C@H](CC(=O)O)NC(=O)[C@H]([C@@H](C)O)NC1=O)C(=O)N[C@@H](CCCNC(=N)N)C(=O)N[C@@H](CO)C(=O)N1CCC[C@H]1C(=O)N[C@@H](C)C(=O)N[C@@H](CC(=O)O)C(=O)N[C@@H](CCCNC(=N)N)C(=O)N[C@@H](CCCNC(=N)N)C(=O)N[C@@H](CCCNC(=N)N)C(=O)N[C@@H](CCCNC(=N)N)C(=O)N[C@@H](Cc1ccc(O)cc1)C(=O)N2`, the Ratio IC50 [1] was 0.6 and the Ratio IC50 [2] was 26.

Work on `CC[C@H](C)[C@@H]1NC(=O)[C@H](CCCNC(=N)N)NC(=O)[C@H](CCCNC(=N)N)NC(=O)[C@@H](NC(=O)[C@H](Cc2ccc(O)cc2)NC(=O)[C@H](CCCNC(=N)N)NC(=O)[C@H](CCCNC(=N)N)NC(=O)[C@H](CCCNC(=N)N)NC(=O)[C@H](CCCNC(=N)N)NC(=O)[C@H](CC(=O)O)NC(=O)[C@H](Cc2ccc(O)cc2)NC(=O)[C@@H]2CCCN2C(=O)[C@H](CO)NC(=O)[C@H](CCCNC(=N)N)NC(=O)[C@@H]2CSSC[C@H](NC(=O)[C@@H](N)[C@@H](C)O)C(=O)N[C@@H](CCCNC(=N)N)C(=O)N[C@@H](CO)C(=O)N[C@@H](CO)C(=O)NCC(=O)N[C@@H](CCCNC(=N)N)C(=O)N[C@@H](Cc3ccc(O)cc3)C(=O)N2)CSSC[C@@H](C(=O)N[C@@H](C)C(=O)O)NC(=O)[C@H](C)NC(=O)[C@H](CC(=O)O)NC(=O)[C@H]([C@@H](C)O)NC1=O` yielded a Ratio IC50 [1] of 3.2 and a Ratio IC50 [2] of 113.

For `CC[C@H](C)[C@@H]1NC(=O)[C@H](CCCNC(=N)N)NC(=O)[C@H](CCCNC(=N)N)NC(=O)[C@@H]2CSSC[C@H](NC(=O)[C@H](Cc3ccc(O)cc3)NC(=O)[C@H](CCCNC(=N)N)NC(=O)CNC(=O)[C@H](CO)NC(=O)[C@H](CO)NC(=O)[C@H](CCCNC(=N)N)NC(=O)[C@@H](NC(=O)[C@@H](N)[C@@H](C)O)CSSC[C@@H](C(=O)N[C@H](C(=O)O)C(C)C)NC(=O)[C@H](C)NC(=O)[C@H](CC(=O)O)NC(=O)[C@H]([C@@H](C)O)NC1=O)C(=O)N[C@@H](C)C(=O)N[C@@H](CO)C(=O)N1CCC[C@H]1C(=O)N[C@@H](Cc1ccc(O)cc1)C(=O)N[C@@H](CC(=O)O)C(=O)N[C@@H](CCCNC(=N)N)C(=O)N[C@@H](CCCNC(=N)N)C(=O)N[C@@H](CCCNC(=N)N)C(=O)N[C@@H](CCCNC(=N)N)C(=O)N[C@@H](Cc1ccc(O)cc1)C(=O)N2`, the Ratio IC50 [1] was 0.6 and the Ratio IC50 [2] was 13.4.

In the case of `CC[C@H](C)[C@@H]1NC(=O)[C@H](CCCNC(=N)N)NC(=O)[C@H](CCCNC(=N)N)NC(=O)[C@@H]2CSSC[C@H](NC(=O)[C@H](Cc3ccc(O)cc3)NC(=O)[C@H](CCCNC(=N)N)NC(=O)CNC(=O)[C@H](CO)NC(=O)[C@H](CO)NC(=O)[C@H](CCCNC(=N)N)NC(=O)[C@@H](NC(=O)[C@@H](N)[C@@H](C)O)CSSC[C@@H](C(=O)N[C@@H](C)C(=O)O)NC(=O)[C@H](C)NC(=O)[C@H](CC(=O)O)NC(=O)[C@H]([C@@H](C)O)NC1=O)C(=O)N[C@@H](CCCNC(=N)N)C(=O)N[C@@H](CO)C(=O)N1CCC[C@H]1C(=O)N[C@@H](Cc1ccc(O)cc1)C(=O)N[C@@H](CC(=O)O)C(=O)N[C@@H](CCCNC(=N)N)C(=O)N[C@@H](CCCNC(=N)N)C(=O)N[C@@H](CCCNC(=N)N)C(=O)N[C@@H](CCCNC(=N)N)C(=O)N[C@@H](Cc1ccc(O)cc1)C(=O)N2`, the Ratio IC50 [1] is reported as 1.5 and the Ratio IC50 [2] is reported as 20.2.

For `CC(C)[C@H](NC(=O)[C@@H]1CSSC[C@H](NC(=O)[C@H](Cc2ccc(O)cc2)NC(=O)[C@H](CCCNC(=N)N)NC(=O)[C@H](CCCNC(=N)N)NC(=O)[C@H](CCCNC(=N)N)NC(=O)[C@H](CCCNC(=N)N)NC(=O)[C@H](CC(=O)O)NC(=O)[C@H](Cc2ccc(O)cc2)NC(=O)[C@@H]2CCCN2C(=O)[C@H](CO)NC(=O)[C@H](CCCNC(=N)N)NC(=O)[C@@H]2CSSC[C@H](NC(=O)[C@@H](N)[C@@H](C)O)C(=O)N[C@@H](CCCNC(=N)N)C(=O)N[C@@H](CO)C(=O)N[C@@H](CO)C(=O)NCC(=O)N[C@@H](CCCNC(=N)N)C(=O)N[C@@H](Cc3ccc(O)cc3)C(=O)N2)C(=O)N[C@@H](CCCNC(=N)N)C(=O)N[C@@H](CCCNC(=N)N)C(=O)N[C@@H](C)C(=O)N[C@@H]([C@@H](C)O)C(=O)N[C@@H](CC(=O)O)C(=O)N[C@@H](C)C(=O)N1)C(=O)O`, the Ratio IC50 [1] was 9.3 and the Ratio IC50 [2] was 302.

`CC[C@H](C)[C@@H]1NC(=O)[C@H](CCCNC(=N)N)NC(=O)[C@H](CCCNC(=N)N)NC(=O)[C@@H]2CSSC[C@H](NC(=O)[C@H](Cc3ccc(O)cc3)NC(=O)[C@H](CCCNC(=N)N)NC(=O)CNC(=O)[C@H](CO)NC(=O)[C@H](CO)NC(=O)[C@H](CCCNC(=N)N)NC(=O)[C@@H](NC(=O)[C@@H](N)[C@@H](C)O)CSSC[C@@H](C(=O)N[C@H](C(=O)O)C(C)C)NC(=O)[C@H](C)NC(=O)[C@H](CC(=O)O)NC(=O)[C@H]([C@@H](C)O)NC1=O)C(=O)N[C@@H](CCCNC(=N)N)C(=O)N[C@@H](CO)C(=O)N1CCC[C@H]1C(=O)N[C@@H](Cc1ccc(O)cc1)C(=O)N[C@@H](CC(=O)O)C(=O)N[C@@H](C)C(=O)N[C@@H](CCCNC(=N)N)C(=O)N[C@@H](CCCNC(=N)N)C(=O)N[C@@H](CCCNC(=N)N)C(=O)N[C@@H](Cc1ccc(O)cc1)C(=O)N2` gave a Ratio IC50 [1] of 0.8 and a Ratio IC50 [2] of 18.8.

With `CC[C@H](C)[C@@H]1NC(=O)[C@H](CCCNC(=N)N)NC(=O)[C@H](CCCNC(=N)N)NC(=O)[C@@H](NC(=O)[C@H](Cc2ccc(O)cc2)NC(=O)[C@H](CCCNC(=N)N)NC(=O)[C@H](CCCNC(=N)N)NC(=O)[C@H](CCCNC(=N)N)NC(=O)[C@H](CCCNC(=N)N)NC(=O)[C@H](CC(=O)O)NC(=O)[C@H](Cc2ccc(O)cc2)NC(=O)[C@@H]2CCCN2C(=O)[C@H](C)NC(=O)[C@H](CCCNC(=N)N)NC(=O)[C@@H]2CSSC[C@H](NC(=O)[C@@H](N)[C@@H](C)O)C(=O)N[C@@H](CCCNC(=N)N)C(=O)N[C@@H](CO)C(=O)N[C@@H](CO)C(=O)NCC(=O)N[C@@H](CCCNC(=N)N)C(=O)N[C@@H](Cc3ccc(O)cc3)C(=O)N2)CSSC[C@@H](C(=O)N[C@H](C(=O)O)C(C)C)NC(=O)[C@H](C)NC(=O)[C@H](CC(=O)O)NC(=O)[C@H]([C@@H](C)O)NC1=O` the Ratio IC50 [1] was 2.1 and the Ratio IC50 [2] was 42.3.

In the case of `CC[C@H](C)[C@@H]1NC(=O)[C@H](CCCNC(=N)N)NC(=O)[C@H](CCCNC(=N)N)NC(=O)[C@@H](NC(=O)[C@H](Cc2ccc(O)cc2)NC(=O)[C@H](CCCNC(=N)N)NC(=O)[C@H](CCCNC(=N)N)NC(=O)[C@H](CCCNC(=N)N)NC(=O)[C@H](CCCNC(=N)N)NC(=O)[C@H](CC(=O)O)NC(=O)[C@H](Cc2ccc(O)cc2)NC(=O)[C@@H]2CCCN2C(=O)[C@H](CO)NC(=O)[C@H](CCCNC(=N)N)NC(=O)[C@@H]2CSSC[C@H](NC(=O)[C@@H](N)[C@@H](C)O)C(=O)N[C@@H](CCCNC(=N)N)C(=O)N[C@@H](CO)C(=O)N[C@@H](CO)C(=O)N[C@@H](C)C(=O)N[C@@H](CCCNC(=N)N)C(=O)N[C@@H](Cc3ccc(O)cc3)C(=O)N2)CSSC[C@H](C(=O)N[C@H](C(=O)O)C(C)C)NC(=O)[C@H](C)NC(=O)[C@H](CC(=O)O)NC(=O)[C@H]([C@@H](C)O)NC1=O`, the Ratio IC50 [1] is reported as 2.2 and the Ratio IC50 [2] is reported as 253.

Work on `CC[C@H](C)[C@@H]1NC(=O)[C@H](CCCNC(=N)N)NC(=O)[C@H](CCCNC(=N)N)NC(=O)[C@@H]2CSSC[C@H](NC(=O)[C@H](Cc3ccc(O)cc3)NC(=O)[C@H](CCCNC(=N)N)NC(=O)CNC(=O)[C@H](CO)NC(=O)[C@H](CO)NC(=O)[C@H](CCCNC(=N)N)NC(=O)[C@@H](NC(=O)[C@@H](N)[C@@H](C)O)CSSC[C@@H](C(=O)N[C@H](C(=O)O)C(C)C)NC(=O)[C@H](C)NC(=O)[C@H](CC(=O)O)NC(=O)[C@H]([C@@H](C)O)NC1=O)C(=O)N[C@@H](CCCNC(=N)N)C(=O)N[C@@H](CO)C(=O)N[C@@H](C)C(=O)N[C@@H](Cc1ccc(O)cc1)C(=O)N[C@@H](CC(=O)O)C(=O)N[C@@H](CCCNC(=N)N)C(=O)N[C@@H](CCCNC(=N)N)C(=O)N[C@@H](CCCNC(=N)N)C(=O)N[C@@H](CCCNC(=N)N)C(=O)N[C@@H](Cc1ccc(O)cc1)C(=O)N2` yielded a Ratio IC50 [1] of 1.2 and a Ratio IC50 [2] of 104.

Compound `CC[C@H](C)[C@@H]1NC(=O)[C@H](CCCNC(=N)N)NC(=O)[C@H](CCCNC(=N)N)NC(=O)[C@@H]2CSSC[C@H](NC(=O)[C@H](Cc3ccc(O)cc3)NC(=O)[C@H](CCCNC(=N)N)NC(=O)CNC(=O)[C@H](C)NC(=O)[C@H](CO)NC(=O)[C@H](CCCNC(=N)N)NC(=O)[C@@H](NC(=O)[C@@H](N)[C@@H](C)O)CSSC[C@@H](C(=O)N[C@H](C(=O)O)C(C)C)NC(=O)[C@H](C)NC(=O)[C@H](CC(=O)O)NC(=O)[C@H]([C@@H](C)O)NC1=O)C(=O)N[C@@H](CCCNC(=N)N)C(=O)N[C@@H](CO)C(=O)N1CCC[C@H]1C(=O)N[C@@H](Cc1ccc(O)cc1)C(=O)N[C@@H](CC(=O)O)C(=O)N[C@@H](CCCNC(=N)N)C(=O)N[C@@H](CCCNC(=N)N)C(=O)N[C@@H](CCCNC(=N)N)C(=O)N[C@@H](CCCNC(=N)N)C(=O)N[C@@H](Cc1ccc(O)cc1)C(=O)N2` has a Ratio IC50 [1] of 1.1 and a Ratio IC50 [2] of 15.2.

In the case of `CC[C@H](C)[C@@H]1NC(=O)[C@H](CCCNC(=N)N)NC(=O)[C@H](CCCNC(=N)N)NC(=O)[C@@H](NC(=O)[C@H](Cc2ccc(O)cc2)NC(=O)[C@H](CCCNC(=N)N)NC(=O)[C@H](CCCNC(=N)N)NC(=O)[C@H](CCCNC(=N)N)NC(=O)[C@H](CCCNC(=N)N)NC(=O)[C@H](CC(=O)O)NC(=O)[C@H](Cc2ccc(O)cc2)NC(=O)[C@@H]2CCCN2C(=O)[C@H](CO)NC(=O)[C@H](CCCNC(=N)N)NC(=O)[C@@H]2CSSC[C@H](NC(=O)[C@@H](N)[C@@H](C)O)C(=O)N[C@@H](CCCNC(=N)N)C(=O)N[C@@H](CO)C(=O)N[C@@H](CO)C(=O)NCC(=O)N[C@@H](CCCNC(=N)N)C(=O)N[C@@H](C)C(=O)N2)CSSC[C@@H](C(=O)N[C@H](C(=O)O)C(C)C)NC(=O)[C@H](C)NC(=O)[C@H](CC(=O)O)NC(=O)[C@H]([C@@H](C)O)NC1=O`, the Ratio IC50 [1] is reported as 3.7 and the Ratio IC50 [2] is reported as 192.
